Screening data, single-dose tests

From ChEMBL document CHEMBL3988442, “University of Dundee, Small-Polar-MMV Screening Library” (2021).

Each number is a percent effect as filed.
How 0% and 100% were set is not recorded. Most values in the screen are low, and negative values occur.
Many other results are left out here, so strong results are more common than in the screen.
Two or more numbers in one place are separate tests of the same structure; such repeats can differ widely.

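Phenotypic screen: M. tuberculosis growth, glucose 7H9 medium, 3 days; the read-out is not stated. Concentration: 50 µM. The record gives no direction; compounds that gave an IC50 in retests scored well above the rest, so higher reads as more growth inhibition. About 69,000 compounds were tested under these conditions; 1.1% (about 760) showed 50% or more at least once.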

structure | percent effect
CN(Cc1nnc2n1CCC2)C(=O)c1ccc2c(c1)OCO2 | -12.86
COC[C@H]1CCCN1c1nccc(-c2cnn(-c3ccccc3C)c2)n1 | 57.19 & 50.56
c1ccc(Cc2noc(CN3CCCC3Cn3cccn3)n2)cc1 (configuration not stated) | 50.7
Cc1csc(N2CCN(C(=O)c3cc(Cl)c[nH]3)CC2)n1 | 27.33
Cc1nc(C2CCN(C)CC2)cc(N2CCOc3ccc(Cl)cc3C2)n1 | 63.76
COc1ccc(F)cc1CN1CCC(O)(CN2CCCCC2)C1 (configuration not stated) | 8.756
CCc1nc(C)sc1CN(Cc1ccncc1)C1CCN(C)CC1 | -28.09 & -4.998
O=C(CCn1cccn1)N1CCSCC1 | -20.83
Cc1ccc(-n2cc(C)cn2)c(NC(=O)NC2(C)CCOC2)c1 (configuration not stated) | 18.29
CC(Cn1cccn1)NC(=O)c1cccs1 (configuration not stated) | -30.25
Cc1cc(CNc2nccc(N)n2)c2[nH]c(C)c(C)c2c1 | 27.64
CCOc1nn(CC)cc1-c1nnc(SCc2ccccn2)n1C | -6.524 & 86.25
CS(=O)(=O)NC[C@H]1Cn2c(-c3ccc(Cl)cc3)cnc2CO1 | -12.11 & 52.47
CCc1cn[nH]c1C1CCN(c2cc(C)c3cc(OC)ccc3n2)CC1 | 26.72
CCOCCC(=O)N1CCCN(c2ccccc2C)CC1 | 23.15
CSc1nc2ccsc2c(=O)n1CC(=O)N(C)C1CCCCC1 | 54.41
Cc1cccc(CNCC2COC3(CCCCC3)O2)c1C (configuration not stated) | -27.45
Cc1nc(N2CCCC(N3CCCC3)C2)c2cnn(C)c2n1 (configuration not stated) | -1.477
Cc1cc(N2CCN(Cc3ccc(-c4cc[nH]n4)o3)CC2)cc(C)n1 | -7.26
COCCCNC(=O)c1cc(C(C)C)nc(N2CCCC2)n1 | -3.17
Br.CCOc1ccc(N(CC(=O)c2ccccc2)C2=NCCCCC2)cc1 | 84.34 & 80.15
O=C(c1coc(COc2cccc3cnccc23)n1)N1CCSCC1 | -19.45 & 0.9077
Cc1cc2n(n1)CCN(c1nc(N(C)C)nc3c1CCNC3)C2 | -7.923 & 15.42
CC(C)CN1Cc2nc(N3CCCC(C)C3)ncc2C1=O (configuration not stated) | -20.83
CS(=O)(=O)N1CCC(CSc2ccccc2)C1 (configuration not stated) | 14.15
Cc1nc(CC(=O)NCc2csc(N3CCCC3)n2)cs1 | 22.28
CC(C)c1nc(CN(C)S(=O)(=O)c2cccs2)cs1 | 3.739 & 1.785
Cc1nc2c(c(NCc3nc4ccccc4s3)n1)CCNCC2 | 69.41
Fc1ccc(N2CCCN(c3ccc(Cn4ccnc4)cn3)CC2)cc1 | 68.18
COCCNc1nc(-c2ccc(S(=O)(=O)N3CCCCC3)cc2)cs1 | -11.39
Cc1nc(CN2CCc3nc(N4CCCC4)nc(NC(C)C)c3C2)cs1 | 58.21 & 55.22
CCCC(C)N(C)Cc1nnc(-c2ccc(Br)s2)o1 (configuration not stated) | 48.23
COc1cc(CN2CCC(COCc3ccccc3)CC2)cc(OC)c1 | 23.82
O=C(NCc1ccco1)N1CCN(Cc2ccc3c(c2)CCO3)CC1 | 82
COCC(=O)NC(C)Cc1cccc(OC)c1 (configuration not stated) | 43.69
[H][C@]12CC[C@]([H])(CN(Cc3[nH]cnc3C)C1)N(Cc1ccccc1SC)C2 | 12.13 & -31.93
Cc1nsc(C(=O)NCCc2ccc(Cl)cc2)n1 | 47.89
CCCn1ncc(CN2CCCC(C(=O)c3ccc(Cl)cc3C)C2)c1C (configuration not stated) | -4.861 & -14.35
CSC1(CNC(=O)N(C)Cc2ccc(Cl)s2)CCOCC1 | -57.39
Cc1cc2[nH]c(O)nc2cc1NCc1ccc(F)cc1 | 22.31 & 59.64
Cc1nc(N2CCOCC2)nc2c1CCN(Cc1ccsc1)CC2.O=C(O)C(F)(F)F | 31.79 & 29.38
c1ccc(-c2nc3c(c(NCCCn4cncn4)n2)CCNCC3)nc1 | -19.32
OC1(CN2CCCC2)CCCN(Cc2ccc(F)cc2Cl)C1 (configuration not stated) | 58.85
CC(NCc1ccc(F)cc1)c1ccc(OCC(=O)NC2CC2)cc1 (configuration not stated) | -47.86
O=C1OCCN1CCS(=O)(=O)c1cccc(Br)c1 | -7.049
COC(=O)CSCc1nc(-c2ccc(Cl)cc2)no1 | 43.6 & 45.61

Some entries from above, unchanged:

For Cc1cc2[nH]c(O)nc2cc1NCc1ccc(F)cc1 the result was 22.31% & 59.64%.
For O=C(c1coc(COc2cccc3cnccc23)n1)N1CCSCC1 the result was -19.45% & 0.9077%.
For Cc1nsc(C(=O)NCCc2ccc(Cl)cc2)n1 the result was 47.89%.
For Cc1nc(N2CCCC(N3CCCC3)C2)c2cnn(C)c2n1 (configuration not stated) the result was -1.477%.